# Results deposited as PubChem BioAssay AID624099 (ICCB-Longwood, 2012)
# Assay: 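Human genes that papillomavirus E2 requires to repress the HPV18 LCR promoter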 (primary screen)
# Cell system: human C33A cervical carcinoma cells (HPV-negative) stably expressing BPV1 E2 and an HPV18 LCR luciferase reporter
# Reagents: siRNA pool against human genes, 40 nM
# Time to read-out: 72 h
# Read-out: 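Per-well luciferase luminescence, z-scored on each plate against the plate mean and SD with control wells left out, then averaged across three replicate plates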
# Reading the numbers: mean z-score and z-score: higher = stronger reporter signal, weaker E2 silencing
# Active means: 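Mean z ≥ 2 together with z ≥ 2 in two or more of the three replicates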
# This is one part, drawn at random, of about 21,000 reagents tested. 497 of them (2.4%) count as active. 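Higher z means weaker E2 silencing; only reporter increases were scored, and knock-downs that hurt cell survival may mask genuine repressor factors.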 No sequences are given here.
Gene,mean z-score,"z-score, replicate A","z-score, replicate B","z-score, replicate C",call
SLCO4C1,-0.13,-0.23,-0.5,0.34,inactive
NSUN2 (NOP2/Sun RNA methyltransferase 2),0.16,0.59,0.11,-0.22,inactive
MBD3 (methyl-CpG binding domain protein 3),-0.17,0.18,-0.05,-0.63,inactive
SLC20A1-DT (SLC20A1 divergent transcript),1.12,1.54,0.74,1.06,inactive
GOLGA8A (golgin A8 family member A),0.43,0.58,0.5,0.23,inactive
"ROS1 (ROS proto-oncogene 1, receptor tyrosine kinase)",-0.46,-0.68,-0.21,-0.49,inactive
GJC3 (gap junction protein gamma 3),-0.27,-0.07,-0.3,-0.43,inactive
FAM193B (family with sequence similarity 193 member B),-1.68,-1.66,-1.58,-1.82,inactive
ANKRD52 (ankyrin repeat domain 52),-0.13,-0.06,-0.35,0.02,inactive
BORCS6 (BLOC-1 related complex subunit 6),-1.18,-1.49,-1.17,-0.89,inactive
KRABD3 (KRAB domain containing 3),0.02,0.06,0.18,-0.17,inactive
CEACAM3 (CEA cell adhesion molecule 3),0.67,0.66,0.72,0.64,inactive
LOC400475 (retired record),-0.14,0.11,-0.67,0.15,inactive
BPY2C (basic charge Y-linked 2C),-0.45,-0.38,-0.2,-0.75,inactive
LOC402247 (retired record),-0.49,-0.33,-0.63,-0.5,inactive
XDH (xanthine dehydrogenase),-1.65,-1.31,-1.79,-1.84,inactive
WDR82 (WD repeat domain 82),-1.94,-2.14,-1.61,-2.07,inactive
LINC00158 (long independently transcribed non-coding RNA 158),0.58,0.81,0.6,0.32,inactive
TIPARP (TCDD inducible poly(ADP-ribose) polymerase),-0.29,-0.23,-0.05,-0.6,inactive
DHRS13 (dehydrogenase/reductase 13),-0.44,-0.29,-0.75,-0.29,inactive
LOC387950 (retired record),-0.93,-1.23,-0.82,-0.73,inactive
RHOG (ras homolog family member G),-0.65,-0.48,-0.8,-0.65,inactive

In a second layout: entries from further up.
{"Gene":"ANKRD52 (ankyrin repeat domain 52)","mean z-score":-0.13,"z-score, replicate A":-0.06,"z-score, replicate B":-0.35,"z-score, replicate C":0.02,"call":"inactive"}
{"Gene":"BORCS6 (BLOC-1 related complex subunit 6)","mean z-score":-1.18,"z-score, replicate A":-1.49,"z-score, replicate B":-1.17,"z-score, replicate C":-0.89,"call":"inactive"}
{"Gene":"KRABD3 (KRAB domain containing 3)","mean z-score":0.02,"z-score, replicate A":0.06,"z-score, replicate B":0.18,"z-score, replicate C":-0.17,"call":"inactive"}
{"Gene":"CEACAM3 (CEA cell adhesion molecule 3)","mean z-score":0.67,"z-score, replicate A":0.66,"z-score, replicate B":0.72,"z-score, replicate C":0.64,"call":"inactive"}

Continued.
Gene,mean z-score,"z-score, replicate A","z-score, replicate B","z-score, replicate C",call
ARPC5L (actin related protein 2/3 complex subunit 5 like),0.25,0.28,0,0.48,inactive
PSMB5 (proteasome 20S subunit beta 5),-0.6,-0.8,-0.4,-0.61,inactive
MST1 (macrophage stimulating 1),2.04,1.91,1.66,2.54,inactive
VMA22 (vacuolar ATPase assembly factor VMA22),0.13,0.17,0.06,0.17,inactive
BUD13 (BUD13 spliceosome associated protein),0.03,-0.07,0.27,-0.13,inactive
BRI3BP (BRI3 binding protein),-0.87,-0.58,-0.93,-1.09,inactive
HDAC3 (histone deacetylase 3),-0.58,-0.58,-0.43,-0.72,inactive
LOC285638,0.1,0.33,-0.06,0.02,inactive
"AGAP11 (ArfGAP with GTPase domain, ankyrin repeat and PH domain 11)",0.63,0.46,0.65,0.77,inactive
APBB2 (amyloid beta precursor protein binding family B member 2),-0.47,-0.23,-0.7,-0.48,inactive
AMZ2 (archaelysin family metallopeptidase 2),-0.04,0.12,-0.18,-0.05,inactive
FAM181A-AS1 (FAM181A antisense RNA 1),-0.22,0.01,-0.42,-0.24,inactive
ASTE1 (asteroid structure-specific endonuclease 1),0.18,-0.35,1.05,-0.16,inactive
PSTK (phosphoseryl-tRNA kinase),-0.74,-0.69,-0.55,-0.98,inactive
RPL6P25 (ribosomal protein L6 pseudogene 25),0.89,0.96,0.71,0.99,inactive
LINC02724 (long independently transcribed non-coding RNA 2724),-0.05,-0.03,-0.2,0.07,inactive
PINK1 (PTEN induced kinase 1),-0.56,-0.73,-0.65,-0.3,inactive
"TRIM51EP (tripartite motif-containing 51E, pseudogene)",2.22,1.93,2.36,2.38,active
CATSPER4 (cation channel sperm associated 4),1.13,1.22,0.98,1.19,inactive
UBE2A (ubiquitin conjugating enzyme E2 A),1.11,0.89,1.08,1.36,inactive
NLRP2 (NLR family pyrin domain containing 2),-0.29,-0.09,-0.27,-0.51,inactive
USPL1 (ubiquitin specific peptidase like 1),-0.4,0.46,-0.85,-0.8,inactive
FRZB (frizzled related protein),-0.07,-0.09,-0.12,-0.01,inactive
"ALG12 (ALG12 alpha-1,6-mannosyltransferase)",0.3,0.19,0.14,0.56,inactive
ZNF773 (zinc finger protein 773),0.17,0.26,0.22,0.03,inactive
GPC4 (glypican 4),-0.93,-0.97,-1.15,-0.67,inactive
PRSS38 (serine protease 38),-1.02,-1.06,-1.11,-0.91,inactive
DEFB104A (defensin beta 104A),0.51,0.36,0.55,0.63,inactive
"FNTAP1 (farnesyltransferase, CAAX box, alpha pseudogene 1)",-0.15,-0.26,-0.14,-0.04,inactive
IL6 (interleukin 6),0.16,0.02,0.14,0.32,inactive
RAET1L (retinoic acid early transcript 1L),0.82,1.21,0.78,0.46,inactive
ADRA1B (adrenoceptor alpha 1B),-0.86,-0.97,-0.85,-0.77,inactive
WDR74 (WD repeat domain 74),-0.87,-0.89,-0.72,-1.02,inactive
CRYBG2 (crystallin beta-gamma domain containing 2),-0.04,-0.16,-0.05,0.09,inactive
IRF9 (interferon regulatory factor 9),0.15,0.24,0.1,0.11,inactive
